Anti-infective test results gathered from many reports (values: NIAID ChemDB through PubChem).

Shared fields: whole-cell or culture tests; species: Influenza A virus

ECn: concentration that inhibits the pathogen or its effect by n%.

structure,strain,cells,measure,tested at,result
O=C(O)C(Cl)(Cl)P(=O)(O)O,A/JAPAN,-,EC50,-,320 µM
CCN1CCC2(C1)C1CC3CC(C1)CC2C3,A2 JAPAN,Chick embryo fibroblasts,inhibition,100 µM,40–70%
CCOC(=O)C12CC3CC(CC(C3)C1)C2,H2N2 A2 JAPAN/305/57,MDCK,EC50,-,>196 µM
NC12CC3CC(CC(C3)C1)C2,A/Singapore/1/57,MDCK,EC50,-,3 µM
NC(=O)c1nc(F)c[nH]c1=O,H2N2 JAPAN/305/57,MDCK,EC50,-,0.3 µg/mL
CN1CCCCC1C12CC3CC(CC(C3)C1)C2,H2N2 A2 JAPAN/305/57,MDCK,EC50,-,>978 µM
CC(N)C12CC3CC(CC(C3)C1)C2,H2N2 A/Singapore/1/57,MDCK,EC50,-,0.45 µM
CC(=O)N[C@H]1[C@H]([C@H](O)[C@H](O)CO)OC(C(=O)O)=C[C@@H]1N,A/Singapore/1/57,MDCK,EC50,-,1.5 µM
[NH3+]CCC12CC3CC(C1)CC(c1ccccc1)(C3)C2,H2N2 A/Singapore/1/57,MDCK,inhibition,4 µg/mL,100%
CC(N)C12CC3CC(CC(C3)C1)C2,H2N2 A2 JAPAN/305/57,MDCK,EC50,-,13.9 µM
CC(N)C12CC3CC(CC(C3)C1)C2,H2N3 A/HK/7/87,MDCK,EC50,-,0.05 µM
C1CCN(CCN2CCCCCC2C23CC4CC(CC(C4)C2)C3)CC1,H2N2 A2 JAPAN/305/57,MDCK,EC50,-,>840 µM
CC12CC3CC(C)(C1)CC(CCC[NH3+])(C3)C2,H2N2 A/Singapore/1/57,MDCK,inhibition,8 µg/mL,100%
CC(N)C12CC3CC(CC(C3)C1)C2,H2N2 A/Singapore/1/57,MDCK,EC50,-,0.45 µM
CN1CCC2(C1)C1CC3CC(C1)CC2C3,A2 JAPAN,Chick embryo fibroblasts,inhibition,100 µM,>70%
NC(N)=Nc1nncs1,A/ANN ARBOR,MDCK,EC50,-,2.3 µg/mL
CCCC12CC3CC(CC(N)(C3)C1)C2,H2N2 A/Singapore/1/57,MDCK,inhibition,1 µg/mL,100%
CN1CCCCCC1C12CC3CC(CC(C3)C1)C2,H2N2 A2 JAPAN/305/57,MDCK,EC50,-,>39 µM
NC12CC3CC(CC(C3)C1)C2,A2 JAPAN,Chick embryo fibroblasts,inhibition,100 µM,>70%
N=C(N)c1ncn([C@@H]2O[C@H](CO)[C@@H](O)[C@H]2O)n1,H5N1 A/duck/MN/1525/81,MDCK,EC50,-,18 µg/mL
CN1CCC2(C1)C1CCCC2CCC1,A2 JAPAN,Chick embryo fibroblasts,inhibition,100 µM,40–70%
C1CNC(C23CC4CC(CC(C4)C2)C3)C1,H2N2 A2 JAPAN/305/57,MDCK,EC50,-,2.5 µM
NC1CC2CC1C1CCCC21,H2N2 A/Singapore/1/57,MDCK,inhibition,1 µg/mL,100%
CN1CCC2(CC3CCC2(C)C3(C)C)C1,A2 JAPAN,Chick embryo fibroblasts,inhibition,100 µM,20–40%
NC12CC3CC(CC(C3)C1)C2,H2N3 A/HK/7/87,MDCK cells,EC50,-,3.95 µM

Lines come from different laboratories, so protocols vary. Blank or dashed fields: not listed here. Percent inhibition refers to the dose given; in toxicity tests it is the harm to the cells. a–b is a range or a potency band.